# According to ChEMBL document CHEMBL1157539, “Thousands of chemical starting points for antimalarial lead identification” (Nature, 2010):
# The list shows a part of the results, in another mix than the full data.
# Tests used:
# Plasmodium falciparum [1] = experiment: GSK_TCMDC: Inhibition of Plasmodium falciparum Dd2 in whole red blood cells, using parasite LDH activity as an index of growth. Test compounds present at 2uM; assay type: functional
# Plasmodium falciparum [2] = experiment: GSK_TCMDC: Inhibition of Plasmodium falciparum 3D7 LDH activity, using an LDH reporter assay. Test compounds present at 2uM; assay type: functional, organism-based
structure (smiles),measurement,setting,value
COc1cc(C(=O)NC(SC2=NCCS2)C(Cl)(Cl)Cl)cc(OC)c1OC (configuration not stated),inhibition,Plasmodium falciparum [1],50%
same,inhibition,Plasmodium falciparum [2],1%
